In US20010011515A1, “Anticorrosive agent” (NEC Corporation, priority 2000, published 2001):

Tested on: liquid culture medium containing a particular microorganism
Test: Biodegradability according to the OECD method
Conditions: after 28 days, stored at 25° C.

Compound: NC(N)=O [Urea]
- Biodegradability (decomposition percent rating): ⊚ (Biodegradability is 80% or more.)

Compound: c1ccc2[nH]nnc2c1 [Benztriazole, reference compound]
- Biodegradability (decomposition percent rating): x (Biodegradability is less than 5%.)
